A mixed list of measured activities; the numbers were collected in NIAID ChemDB.

Common to all: tests on isolated targets; agent: HIV-1; target: Integrase; endpoint: IC50

Rows are shuffled and stem from different studies. An empty or dashed field is not shown. ICn is the concentration giving n% inhibition. Two numbers with a dash give a range or band.

{"compound": "O=c1oc2ccccc2c(O)c1Cc1c(O)c2ccccc2oc1=O", "read by": "3′ processing", "value": ">100 µM"}
{"compound": "Cc1ccnc(C(=O)CC(=O)c2cc(Cc3ccccc3)cc(CN3CCCS3(=O)=O)c2)c1", "value": "0.03 µM"}
{"compound": "CC(=O)C(N=Nc1ccc(S(=O)(=O)Nc2ccccn2)cc1)C(=O)Nc1ccccc1C", "read by": "3′ processing", "setting": "Mn2+", "value": "78 µM"}
{"compound": "O=C1/C(=C/c2cc(O)c(O)c(O)c2)CCC/C1=C\\c1cc(O)c(O)c(O)c1", "read by": "strand transfer", "value": "2.3 µM"}
{"compound": "CCOc1ccc(C(C2=C(O)c3ccccc3C(=O)C2=O)C2=C(O)c3ccccc3C(=O)C2=O)cc1OC", "read by": "strand transfer", "value": ">100 µM"}
{"compound": "Cc1ccccc1Cc1cccc(C(=O)CC(=O)C(=O)O)c1", "value": "0.01 µM"}
{"compound": "Nc1ccn([C@H]2C[C@H](OP(=O)(O)OC[C@H]3OC[C@@H](n4ccc(=O)[nH]c4=O)[C@@H]3O)[C@@H](COP(=O)(O)O)O2)c(=O)n1", "read by": "strand transfer", "value": "6 µM"}
{"compound": "CC1(C)OC(=O)/C(=C/C(=O)c2cn(Cc3cc(F)ccc3F)c3ccc(F)cc23)O1", "read by": "strand transfer / fluorescence", "value": "9.6 µM"}
{"compound": "OC1/C(=C/c2ccc(Cl)c(Cl)c2)COC/C1=C\\c1ccc(Cl)c(Cl)c1", "read by": "strand transfer", "value": ">100 µM"}
{"compound": "N#C/C(=C\\c1ccc(O)c(O)c1)C(=O)NCCc1ccc(O)c(O)c1", "read by": "strand transfer", "value": "2.7 µM"}
{"compound": "CN1C/C(=C\\c2ccc(O)c([N+](=O)[O-])c2)C(=O)/C(=C/c2ccc(O)c([N+](=O)[O-])c2)C1", "read by": "strand transfer", "value": ">100 µM"}
{"compound": "CN(C)CCCNC(=O)c1cc(NC(=O)c2cc(NC(=O)c3cc(NC(=O)c4ccnc(C(=O)Nc5cc(C(=O)Nc6cc(C(=O)Nc7cc(C(=O)NCCCN(C)C)n(C)c7)n(C)c6)n(C)c5)c4)cn3C)cn2C)cn1C", "read by": "3′ processing", "value": "11.1 µM"}
{"compound": "Cc1ccc(C(=O)Nc2ccc3c(c2)c(C(C(=O)O)C(=O)O)cn3S(=O)(=O)c2ccc(C)cc2)cc1", "changes": "Y143R", "read by": "strand transfer / fluorescence", "value": ">25 µM"}
{"compound": "COc1cccc2c1C(=O)c1c(O)c3c(c(O)c1C2=O)C[C@@](O)(C(=O)CO)C[C@@H]3O[C@H]1C[C@H](O)[C@H](O)[C@H](C)O1", "read by": "3′ processing / substrate cleavage", "value": "14.4 µM"}
{"compound": "CN(C)CCCNC(=O)c1cc(NC(=O)c2cc(NC(=O)c3cc(NC(=O)c4cncc(C(=O)Nc5cc(C(=O)Nc6cc(C(=O)Nc7cc(C(=O)NCCCN(C)C)n(C)c7)n(C)c6)n(C)c5)c4)cn3C)cn2C)cn1C", "read by": "3′ processing", "value": "100 µM"}
{"compound": "COc1ccc(NC(=O)C/C(C)=N/N=C(N)N)c([N+](=O)[O-])c1", "read by": "3′ processing", "setting": "Mn2+", "value": ">200 µM"}
{"compound": "N#C/C(=C\\c1ccc(O)c(O)c1)C(=O)NCCCCNC(=O)/C(C#N)=C/c1ccc(O)c(O)c1", "read by": "strand transfer", "value": "5–10 µM"}
{"compound": "[N-]=[N+]=NCc1cc(CN=[N+]=[N-])cc(C(=O)CC(=O)C(=O)O)c1", "read by": "3′ processing", "value": "24.5 µM"}
{"compound": "O=C(NC(=O)c1cn(CCN2CCNCC2)c(=O)[nH]c1=O)OCc1ccccc1", "read by": "3′ processing", "setting": "Mn2+", "value": ">200 µM"}
{"compound": "CCN(CC)CCCC(C)Nc1c2ccc(Cl)cc2nc2ccc(OC)cc12", "read by": "strand transfer", "value": ">100 µM"}
{"compound": "Cc1cn([C@H]2C[C@H](N=[N+]=[N-])[C@@H](COP(=O)(O)O)O2)c(=O)[nH]c1=O", "read by": "3′ processing / substrate cleavage", "value": "200 µM"}
{"compound": "CN(C)CCCNC(=O)c1cc(NC(=O)c2cc(NC(=O)c3cc(NC4C(=O)c5ccccc5C4=O)cn3C)cn2C)cn1C", "read by": "3′ processing", "value": "11.1 µM"}
{"compound": "O=C(O)[C@@H](CS(=O)(=O)c1ccc([N+](=O)[O-])cc1)NC(=O)C1(c2ccc3ccccc3c2)CCN(Cc2ccc3ccccc3c2)CC1", "strain": "NL4-3", "read by": "strand transfer / fluorescence", "setting": "pseudotyped", "value": "55.99 µM"}
{"compound": "O=C(Cc1cccs1)Nc1ccc2c(c1)C(=O)N(O)C(=O)C2C(=O)NCc1ccc(F)cc1", "read by": "strand transfer", "value": "0.27 µM"}
{"compound": "C=C(CC[C@@H](C)[C@H]1CC=C2C3=C([C@@H](O)[C@H](OC(C)=O)[C@@]21C)[C@@]1(C)C[C@@H](O)[C@H](OS(=O)(=O)O)C(C)(C)[C@@H]1CC3)C(C)C", "read by": "strand transfer", "value": "9 µM"}
{"compound": "O=C1C(=O)c2ccccc2C(O)=C1CSc1ccc(Cl)cc1", "read by": "3′ processing", "value": ">100 µM"}
{"compound": "Cn1cc(NC(=O)c2cc(NC(=O)c3cc(NC(=O)C[C@@H]4C5C=CC(C5)[C@H]4C(=O)Nc4cc(C(=O)Nc5cc(C(=O)Nc6cc(C(=O)NCCC(=N)N)n(C)c6)n(C)c5)n(C)c4)cn3C)cn2C)cc1C(=O)NCCC(=N)N", "read by": "3′ processing", "value": "36.5 µM"}
{"compound": "COc1ccc2[nH]c3ccc4cc[n+](CCN5CCC(C6CCN(CC[n+]7ccc8ccc9[nH]c%10ccc(OC)cc%10c9c8c7)CC6)CC5)cc4c3c2c1", "read by": "strand transfer", "value": "0.8 µM"}
{"compound": "N#C/C(=C\\c1cc(O)c(O)c(O)c1)C(=O)NCCCCNC(=O)/C(C#N)=C/c1cc(O)c(O)c(O)c1", "read by": "disintegration", "value": "0.4 µM"}
{"compound": "O=C(O)[C@@H](CS(=O)(=O)c1ccc(C(F)(F)F)cc1)NC(=O)C1(c2ccc3ccccc3c2)CCN(Cc2ccc3ccccc3c2)CC1", "strain": "NL4-3", "read by": "strand transfer / fluorescence", "setting": "pseudotyped", "value": "55.99 µM"}
{"compound": "CN1C(=O)C(=O)/C(=C(\\O)c2ccccn2)C1c1cccc(Cl)c1", "read by": "3′ processing", "value": ">100 µM"}
{"compound": "O=C1/C(=C/c2cc(O)c(O)c(O)c2)CN(Cc2ccccc2)C/C1=C\\c1cc(O)c(O)c(O)c1", "read by": "3′ processing", "value": "0.7 µM"}
{"compound": "O=C(Nc1ccc2c(c1)C(=O)N(O)C(=O)C2C(=O)NCc1ccc(F)cc1)c1ccccn1", "read by": "strand transfer", "value": "0.77 µM"}
{"compound": "N#C/C(=C\\c1cc(O)c(O)c(O)c1)C(=O)NCCCCCNC(=O)/C(C#N)=C/c1cc(O)c(O)c(O)c1", "read by": "strand transfer", "value": "0.17 µM"}
{"compound": "COc1cc([C@@H]2c3cc4c(cc3[C@@H](O[C@@H]3O[C@@H]5CO[C@@H](C)O[C@H]5[C@H](O)[C@H]3O)[C@H]3COC(=O)[C@H]23)OCO4)cc(OC)c1O", "read by": "3′ processing / substrate cleavage", "value": ">100 µM"}
{"compound": "O=C(O)C(=O)/C=C(\\O)c1cn(Cc2cc(F)ccc2F)c2ccc(Br)cc12", "changes": "Y143R", "read by": "strand transfer / fluorescence", "value": "15.6 µM"}
{"compound": "O=C(NCc1ccc(F)cc1)c1nc(N2CCCCS2(=O)=O)c2cccnc2c1O", "read by": "3′ processing", "value": "0.25 µM"}
{"compound": "CN1CCN(c2ccc3nc(-c4ccc5nc(-c6ccc(O)cc6)[nH]c5c4)[nH]c3c2)CC1", "read by": "3′ processing", "value": ">100 µM"}
{"compound": "O=C1/C(=C/c2ccc([N+](=O)[O-])c(O)c2)CNC/C1=C\\c1ccc([N+](=O)[O-])c(O)c1", "read by": "strand transfer", "value": ">100 µM"}
{"compound": "O=C(O)C(=O)/C=C(\\O)c1cn(Cc2ccc(F)cc2)c2ccc(Br)cc12", "changes": "G140S", "read by": "strand transfer / fluorescence", "value": "0.2 µM"}
{"compound": "N#C/C(=C\\c1cc(O)c(O)c(Br)c1)C(=O)NCCCNC(=O)/C(C#N)=C/c1cc(O)c(O)c(Br)c1", "read by": "disintegration", "value": "0.8 µM"}
{"compound": "Cc1ccc(CNC(=O)C2C(=O)N(O)C(=O)c3ccccc32)cc1", "read by": "strand transfer", "value": "2.55 µM"}
{"compound": "CCN(CC)CCCC(C)Nc1ccnc2cc(Cl)ccc12", "read by": "strand transfer", "value": "5.14 µM"}
{"compound": "O=C(O)[C@H](Cc1ccccc1)NC(=O)C1(c2ccc3ccccc3c2)CCN(Cc2ccc3ccccc3c2)CC1", "strain": "NL4-3", "read by": "strand transfer / fluorescence", "setting": "pseudotyped", "value": ">500 µM"}
{"compound": "COc1cc([C@@H]2c3cc4c(cc3[C@@H](O[C@@H]3O[C@@H]5CO[C@@H](c6cccs6)O[C@H]5[C@H](O)[C@H]3O)[C@H]3COC(=O)[C@H]23)OCO4)cc(OC)c1O", "read by": "strand transfer", "value": ">100 µM"}
{"compound": "O=C1Sc2cc3ccccc3cc2C(=O)N2CSCC12", "read by": "3′ processing", "value": "92 µM"}
{"compound": "O=C(O)c1cc2ccccc2c(N=Nc2ccc(S(=O)(=O)Nc3nccs3)cc2)c1O", "read by": "3′ processing", "setting": "Mg2+", "value": "16 µM"}
{"compound": "CC(C)Oc1ccc(Cc2ccccc2)cc1C(=O)CC(=O)C(=O)O", "value": "0.05 µM"}
{"compound": "O=C1/C(=C/c2ccc(O)c(O)c2)CC(C(=O)O)C/C1=C\\c1ccc(O)c(O)c1", "read by": "strand transfer", "value": "1 µM"}
{"compound": "O=C(NCCc1ccc(F)cc1)c1c(O)n(O)c(=O)c2cc([N+](=O)[O-])ccc12", "read by": "strand transfer", "value": "0.03 µM"}
{"compound": "Nc1c(Br)cc2c([nH]c(=O)c3cc(Br)ccc32)c1Br", "read by": "3′ processing", "setting": "Mg2+", "value": "187 µM"}
{"compound": "O=C(O)C(=O)CC(=O)c1ccccc1", "read by": "3′ processing", "value": ">333 µM"}
{"compound": "O=C1/C(=C\\c2cc(O)c(O)c(O)c2)Cc2ccccc21", "read by": "3′ processing", "value": "0.3 µM"}
{"compound": "CC1(C)OC(=O)/C(=C/C(=O)c2c[nH]c3ccc(Br)cc23)O1", "changes": "Y143R", "read by": "strand transfer / fluorescence", "value": "15.9 µM"}
{"compound": "N#C/C(=C\\c1ccc(O)c(O)c1)C(=O)NCc1cccc(CNC(=O)/C(C#N)=C/c2ccc(O)c(O)c2)c1", "read by": "strand transfer", "value": "5–10 µM"}
{"compound": "N=C(N)c1ccc(OCCCCCOc2ccc(C(=N)N)cc2)cc1", "read by": "3′ processing", "value": ">100 µM"}
{"compound": "O=C1NC(=O)C(=Cc2cc(O)c(O)c(O)c2)C(=O)N1", "read by": "3′ processing", "value": "3 µM"}
{"compound": "O=[N+]([O-])c1cc(S(=O)(=O)c2ccc(F)c([N+](=O)[O-])c2)ccc1F", "read by": "strand transfer", "value": "40 µM"}
{"compound": "CC(O)/C=C/c1ccc2c(c1)c(C(=O)/C=C1\\OC(C)(C)OC1=O)cn2Cc1ccc(F)cc1", "changes": "Y143R", "read by": "strand transfer / fluorescence", "value": "15.4 µM"}
{"compound": "Nc1c2ccccc2nc2ccccc12", "read by": "3′ processing / substrate cleavage", "value": ">100 µM"}
{"compound": "CCN1C/C(=C\\c2ccc(O)c([N+](=O)[O-])c2)C(=O)/C(=C/c2ccc(O)c([N+](=O)[O-])c2)C1", "read by": "strand transfer", "value": ">100 µM"}
{"compound": "C=C(CC[C@@H](C)[C@@]1(OC2O[C@H](CO)[C@@H](O)[C@H](O)[C@@H]2O)CC=C2C3=C(C[C@@H](O)[C@@]21C)[C@@]1(C)CC[C@H](O)C(C)(C)[C@@H]1CC3)C(C)C", "read by": "absorbance", "value": "50 µM"}

4 of the rows above, restated:

compound | strain | changes | read by | setting | value
CCN1C/C(=C\c2ccc(O)c([N+](=O)[O-])c2)C(=O)/C(=C/c2ccc(O)c([N+](=O)[O-])c2)C1 |  |  | strand transfer |  | >100 µM
C=C(CC[C@@H](C)[C@H]1CC=C2C3=C([C@@H](O)[C@H](OC(C)=O)[C@@]21C)[C@@]1(C)C[C@@H](O)[C@H](OS(=O)(=O)O)C(C)(C)[C@@H]1CC3)C(C)C |  |  | strand transfer |  | 9 µM
Cn1cc(NC(=O)c2cc(NC(=O)c3cc(NC(=O)C[C@@H]4C5C=CC(C5)[C@H]4C(=O)Nc4cc(C(=O)Nc5cc(C(=O)Nc6cc(C(=O)NCCC(=N)N)n(C)c6)n(C)c5)n(C)c4)cn3C)cn2C)cc1C(=O)NCCC(=N)N |  |  | 3′ processing |  | 36.5 µM
Nc1ccn([C@H]2C[C@H](OP(=O)(O)OC[C@H]3OC[C@@H](n4ccc(=O)[nH]c4=O)[C@@H]3O)[C@@H](COP(=O)(O)O)O2)c(=O)n1 |  |  | strand transfer |  | 6 µM